Compound potency records, mixed from different reports. Data source: NIAID ChemDB in PubChem.

Common to all: tests in culture

A number after MIC or MFC names an inhibition level or a share of isolates.

SMILES,endpoint,agent,method,dose,strain or isolate,value
CO[C@H]1/C=C/O[C@@]2(C)Oc3c(C)c(O)c4c(O)c(c5c(c4c3C2=O)NC2(CCN(CC(C)C)CC2)N=5)=NC(=O)/C(C)=C\C=C\[C@H](C)[C@H](O)[C@@H](C)[C@@H](O)[C@@H](C)[C@H](OC(C)=O)[C@@H]1C,MIC,Mycobacterium avium intracellulare,-,-,109,0.125 µg/mL
CCOc1ccc(N2CCN(c3ccc(CNC(=O)c4c(CC)nc5ccc(Cl)cn45)cc3F)C[C@@H]2C)cc1,inhibition,Mycobacterium avium,fluorescence,0.011 µM,-,85%
CC[C@H]1OC(=O)[C@H](C)[C@@H](OC2C[C@@](C)(OC)[C@@H](O)[C@H](C)O2)[C@H](C)[C@@H](O[C@@H]2O[C@H](C)C[C@H](N(C)C)[C@H]2O)C(C)(O)C[C@@H](C)/C(=N\OCCCCCc2ccccc2)[C@H](C)[C@@H](O)[C@]1(C)O,MIC,Mycobacterium avium complex,-,-,20096 (clarithromycin-resistant),6.25 µg/mL
Cc1ccn2c(C(=O)NCc3ccc(N4CCC(c5ccc(OC(F)(F)F)cc5)CC4)cc3F)c(C)nc2c1.Cl,inhibition,Mycobacterium avium,fluorescence,0.33 µM,-,85%
CC(C)N=C(N)/N=C(\N)NOCCCOc1cc(Cl)c(Cl)cc1Cl,MIC,Mycobacterium avium complex,-,-,1409,32 µg/mL
CCCCCCCCCCCCNNC(=O)O[C@H]1[C@H](O[C@@H]2[C@@H](C)[C@H](O[C@H]3C[C@@](C)(OC)[C@@H](OC(C)=O)[C@H](C)O3)[C@@H](C)C(=O)O[C@H](CC)[C@@](C)(O)[C@H](O)[C@@H](C)/C(=N/OCCCC3CCCCC3)[C@H](C)CC2(C)O)O[C@H](C)C[C@@H]1N(C)C,MIC,Mycobacterium avium complex,-,-,20096 (clarithromycin-resistant),50 µg/mL
CCc1nc2ccc(Cl)cn2c1C(=O)NCc1ccc(N2CCN(c3ccc(OC(F)(F)F)cc3)C(C)(C)C2)c(F)c1,inhibition,Mycobacterium avium,fluorescence,0.0091 µM,-,85%
Fc1ccc(Oc2cccc(CNc3ncnc4ccccc34)c2)cc1,MIC50,Mycobacterium bovis BCG,luminescence,-,-,>50 µM
CCc1nc2ccc(Cl)cn2c1C(=O)NCc1ccc(N2CCN(c3ccc(OC(F)(F)F)cc3F)[C@@H](CC)C2)c(F)c1.Cl,inhibition,Mycobacterium avium,fluorescence,0.023 µM,-,85%
FC(F)(F)c1ccc(CNc2ncnc3ccsc23)cc1,MIC50,Mycobacterium bovis BCG,luminescence,-,-,>50 µM
CC[C@H]1OC(=O)[C@H](C)[C@@H](O[C@H]2C[C@@](C)(OC)[C@@H](OC(C)=O)[C@H](C)O2)[C@H](C)[C@@H](O[C@@H]2O[C@H](C)C[C@H](N(C)C)[C@H]2O)C(C)(O)C[C@@H](C)/C(=N\OCCCCOc2ccccc2)[C@H](C)[C@@H](O)[C@]1(C)O,MIC,Mycobacterium avium intracellulare,-,-,20066 (clarithromycin-susceptible),1.56 µg/mL
CCc1nc2cc(F)ccn2c1C(=O)NCc1ccc(N2CCN(c3ccc(OC(F)(F)F)cc3F)[C@@H](C)C2)c(F)c1.Cl,inhibition,Mycobacterium avium,fluorescence,0.0076 µM,-,85%
NCC[C@H](O)C(=O)N[C@@H]1C[C@H](N)[C@@H](O[C@H]2O[C@H](CN)[C@@H](O)[C@H](O)[C@H]2O)[C@H](O)[C@H]1O[C@H]1O[C@H](CO)[C@@H](O)[C@H](N)[C@H]1O,MIC50,Mycobacterium abscessus,broth dilution,-,-,16 µg/mL
CC[C@H]1OC(=O)[C@H](C)[C@@H](O[C@H]2C[C@@](C)(OC)[C@@H](OC(C)=O)[C@H](C)O2)[C@H](C)[C@@H](O[C@@H]2O[C@H](C)C[C@H](N(C)C)[C@H]2O)C(C)(O)C[C@@H](C)/C(=N\OCCCC2CCCCC2)[C@H](C)[C@@H](O)[C@]1(C)O,MIC,Mycobacterium avium complex,-,-,20092 (clarithromycin-resistant),3.13 µg/mL
CC(C)Oc1ccc(-c2ccc(Nc3ncnc4cc(F)ccc34)cc2)cc1,MIC50,Mycobacterium bovis BCG,luminescence,-,-,>10 µM
CCC(=O)O[C@H]1[C@H](C)OC(O[C@H]2[C@H](C)[C@@H](O[C@@H]3O[C@H](C)C[C@H](N(C)C)[C@H]3O)C(C)(O)C[C@@H](C)/C(=N\OCCCOc3ccccc3)[C@H](C)[C@@H](O)[C@](C)(O)[C@@H](CC)OC(=O)[C@@H]2C)C[C@@]1(C)OC,MIC,Mycobacterium avium intracellulare,-,-,20066 (clarithromycin-susceptible),0.78 µg/mL
Fc1ccc(N2CCN(c3ccc(Nc4ncnc5ccsc45)cc3)CC2)cc1,MIC50,Mycobacterium bovis BCG,luminescence,-,-,>10 µM
CCCCCCCCCCO/N=C1\[C@H](C)CC(C)(O)[C@H](O[C@@H]2O[C@H](C)C[C@H](N(C)C)[C@H]2O)[C@@H](C)[C@H](OC2C[C@@](C)(OC)[C@@H](O)[C@H](C)O2)[C@@H](C)C(=O)O[C@H](CC)[C@@](C)(O)[C@H](O)[C@H]1C,MIC,Mycobacterium avium complex,-,-,20039 (clarithromycin-susceptible),12.5 µg/mL
c1ccc2c(Nc3ccc(NCCN4CCOCC4)cc3)ncnc2c1,MIC50,Mycobacterium bovis BCG,luminescence,-,-,>10 µM
CC1(C)N=C(N)N=C(N)N1OCCCOc1cc(Cl)c(Cl)cc1Cl,MIC,Mycobacterium avium complex,-,-,DW15,8 µg/mL
CCCCCCO/N=C1\[C@H](C)CC(C)(O)[C@H](O[C@@H]2O[C@H](C)C[C@H](N(C)C)[C@H]2O)[C@@H](C)[C@H](OC2C[C@@](C)(OC)[C@@H](O)[C@H](C)O2)[C@@H](C)C(=O)O[C@H](CC)[C@@](C)(O)[C@H](O)[C@H]1C,MIC,Mycobacterium avium intracellulare,-,-,20066 (clarithromycin-susceptible),3.13 µg/mL

The first 2 rows once more:

SMILES,endpoint,agent,method,dose,strain or isolate,value
CO[C@H]1/C=C/O[C@@]2(C)Oc3c(C)c(O)c4c(O)c(c5c(c4c3C2=O)NC2(CCN(CC(C)C)CC2)N=5)=NC(=O)/C(C)=C\C=C\[C@H](C)[C@H](O)[C@@H](C)[C@@H](O)[C@@H](C)[C@H](OC(C)=O)[C@@H]1C,MIC,Mycobacterium avium intracellulare,-,-,109,0.125 µg/mL
CCOc1ccc(N2CCN(c3ccc(CNC(=O)c4c(CC)nc5ccc(Cl)cn45)cc3F)C[C@@H]2C)cc1,inhibition,Mycobacterium avium,fluorescence,0.011 µM,-,85%

An empty or dashed field is not shown. Conditions beyond the fields shown may differ between rows. Inhibition is in % at the dose shown (toxicity tests: loss of growth or viability).